Sequences of proteins named here, by UniProt entry; tags and fusion partners are left off. A change or cut given only in a name is not applied to a line headed by its entry. Residues count along the entry.
UniProt P79483, 30-266 R40L/Y55F/D57E/Y59H/F66Y/L67A/T80R/V86D/S89Y/R103Q/A212P/R218S limits assumed: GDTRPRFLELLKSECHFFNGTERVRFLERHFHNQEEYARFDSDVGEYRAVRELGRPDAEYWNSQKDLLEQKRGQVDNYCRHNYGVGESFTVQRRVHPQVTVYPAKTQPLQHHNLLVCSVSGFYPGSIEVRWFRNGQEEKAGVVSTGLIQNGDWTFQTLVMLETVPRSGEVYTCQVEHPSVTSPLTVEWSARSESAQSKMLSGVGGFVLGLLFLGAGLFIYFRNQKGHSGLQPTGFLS
UniProt P01920: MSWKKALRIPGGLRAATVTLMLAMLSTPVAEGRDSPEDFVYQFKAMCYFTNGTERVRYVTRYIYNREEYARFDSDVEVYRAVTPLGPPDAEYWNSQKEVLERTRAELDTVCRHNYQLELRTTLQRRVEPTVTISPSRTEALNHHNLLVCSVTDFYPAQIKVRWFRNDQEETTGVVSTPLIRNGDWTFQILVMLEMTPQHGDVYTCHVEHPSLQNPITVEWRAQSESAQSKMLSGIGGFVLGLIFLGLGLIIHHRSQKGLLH

According to PMC3445454, “Broad and Cross-Clade CD4^+ T-Cell Responses Elicited by a DNA Vaccine Encoding Highly Conserved and Promiscuous HIV-1 M-Group Consensus Peptides” (PLoS ONE, 2012):

How the values were obtained:
Experiment in all cases: biochemical
HLA-DR DRB1*03:01 = HLA-DR DRB1*03:01 (Homo sapiens, UniProt P01903+P01911, A100K/A102G/A103R/A169T/F55Y/I96L/K41T/L162R/M171V/P40S/Q125H/Q178H/Q39Y/R42S/S66N/T106N/T262R/W38E/Y61H); assay type: binding
HLA-DR DRB1*04:01 = HLA-DR DRB1*04:01 (Homo sapiens, UniProt P01903+P01911, A100K/A169T/F76Y/I96L/K127E/L162R/M171V/N62H/P40V/Q125Y/R42H/S133A/S149N/S66Y/V115G/V209L/W38E); assay type: binding
HLA-DR DRB1*04:05 = HLA-DR DRB1*04:05 (Homo sapiens, UniProt P01903+P01911, A100R/A169T/D86S/F76Y/I96L/K127E/L162R/M171V/N62H/P40V/Q125Y/R42H/S133A/S149N/S66Y/V115G/V209L/W38E); assay type: binding
HLA-DR DRB1*07:01 = HLA-DR DRB1*07:01 (Homo sapiens, UniProt P01903+P01911, A100R/A102G/A103Q/D57E/D86V/E43K/F76Y/K127E/L162R/M171V/P40G/Q125H/Q99D/R33Q/R42Y/R54Q/S133A/S66F/T210M/V115G/Y107V/Y59L/Y89S); assay type: binding
HLA-DR DRB1*08:02 = HLA-DR DRB1*08:02 (Homo sapiens, UniProt P01903+P01911, A100R/A103L/A169T/F76Y/H45Y/I96F/K41T/L162R/M171V/P40S/Q125H/Q178H/Q39Y/Q99D/R218S/R42G/S66Y/V115G/W38E); assay type: binding
HLA-DR DRB1*11:01 = HLA-DR DRB1*11:01 (Homo sapiens, UniProt P01903+P01911, A100R/A169T/A87E/I96F/K41T/L162R/M171V/P40S/Q125H/Q178H/Q39Y/Q99D/R42S/S66Y/T262R/V115G/W38E); assay type: binding
HLA-DR DRB1*13:02 = HLA-DR DRB1*13:02 (Homo sapiens, UniProt P01903+P01911, A100E/A169T/K41T/L162R/M171V/P40S/Q125H/Q178H/Q39Y/Q99D/R42S/S66N/T262R/V115G/W38E/Y61H); assay type: binding
HLA-DR DRB1*16:02 = HLA-DR DRB1*16:02 (Homo sapiens, UniProt P01903+P01911, A100R/F76Y/I96L/Q99D/V115G); assay type: binding
HLA-DR DRB3*02:02 = HLA-DR DRB3*02:02 (Homo sapiens, UniProt P01903+P79483, A212P/D57E/F66Y/L67A/R103Q/R218S/R40L/S89Y/T80R/V86D/Y55F/Y59H); assay type: binding
[1] = molecular target: HLA-DQ DQA1*01:04/DQB1*05:03 (Homo sapiens, UniProt P01909+P01920, A157S/A221T/A45G/A70V/C70R/D25G/E106S/E118A/E183D/E77G/F83G/G63E/H151Q/H199R/H252R/H253Q/I129T/I235V/I88M/INS77G/K197Q/L107V/L117V/L119Y/L178F/L71W/L74F/L85Q/L91A/L98M/M46L/N214S/P87R/Q116E/Q256R/Q57E/Q76K/R102G/R240Q/R75S/R78G/S102Y/S185I/S41F/S97I/T103A/T109R/T121G/T122I/T172A/T86R/V148I/V68A/V73E/Y34C/Y58G/Y62H)
[2] = molecular target: HLA-DQ DQA1*01:03/DQB1*06:03 (Homo sapiens, UniProt P01909+P01920, A157G/A45G/C70R/E118A/E183D/E77G/F83G/G63E/H199R/H252R/H253Q/I129T/I235V/I88M/INS77G/K197Q/L117V/L119F/L178F/L71W/L74F/L85Q/L91A/L98M/N214S/P87R/Q116E/Q76K/R102G/R240Q/R64K/R75S/R78G/S102Y/S152A/S185I/S41F/S97I/T121G/T122I/T172A/T86R/V68A/V73E/Y34C/Y48F/Y58L/Y62H)
HLA-DR DRB1*01:01 = HLA-DR DRB1*01:01 (Homo sapiens, UniProt P01903+P01911, A100R/D57E/F55L/F60I/F76Y/I96L/L162R/M171V/P40L/Q125E/R42F/V115G/Y59C); assay type: binding
HLA-DR DRB1*12:01 = HLA-DR DRB1*12:01 (Homo sapiens, UniProt P01903+P01911, A100R/A169T/D57E/D86V/F55L/H45Y/K41T/L162R/M171V/P40S/Q125H/Q178H/Q39Y/Q99D/R42G/S66L/T262R/V114A/V67L/W38E/Y59H/Y61H/Y89S); assay type: binding

Row | Structure (SMILES) | IC50 (HLA-DR DRB1*03:01) [nM] | IC50 (HLA-DR DRB1*04:01) [nM] | IC50 (HLA-DR DRB1*04:05) [nM] | IC50 (HLA-DR DRB1*07:01) [nM] | IC50 (HLA-DR DRB1*08:02) [nM] | IC50 (HLA-DR DRB1*11:01) [nM] | IC50 (HLA-DR DRB1*13:02) [nM] | IC50 (HLA-DR DRB1*16:02) [nM] | IC50 (HLA-DR DRB3*02:02) [nM] | IC50 [1] [nM] | IC50 [2] [nM] | IC50 (HLA-DR DRB1*01:01) [nM] | IC50 (HLA-DR DRB1*12:01) [nM]
1 | CC[C@H](C)[C@H](NC(=O)[C@H](CCC(=O)O)NC(=O)CN)C(=O)N[C@@H](Cc1ccc(O)cc1)C(=O)N[C@@H](CCCCN)C(=O)N[C@@H](CCCNC(=N)N)C(=O)N[C@@H](Cc1c[nH]c2ccccc12)C(=O)N[C@H](C(=O)N[C@H](C(=O)N[C@@H](CC(C)C)C(=O)NCC(=O)N[C@@H](CC(C)C)C(=O)N[C@@H](CC(N)=O)C(=O)N[C@@H](CCCCN)C(=O)N[C@H](C(=O)N[C@H](C(=O)N[C@@H](CCCNC(=N)N)C(=O)N[C@@H](CCSC)C(=O)N[C@@H](Cc1ccc(O)cc1)C(N)=O)C(C)C)[C@@H](C)CC)[C@@H](C)CC)[C@@H](C)CC [p24(127-145)] | 52 | 66 | 286 | 2180 | 35 | 170 | 66 | 59 | 321 | 5130 | 1.7 |  | 
2 | CC[C@H](C)[C@H](NC(=O)[C@@H](NC(=O)[C@H](CCC(=O)O)NC(=O)[C@@H]1CCCN1C(=O)[C@@H](N)CO)C(C)C)C(=O)N1CCC[C@H]1C(=O)N[C@@H](CCSC)C(=O)N[C@@H](Cc1ccccc1)C(=O)N[C@@H](CO)C(=O)N[C@@H](C)C(=O)N[C@@H](CC(C)C)C(=O)N[C@@H](CO)C(=O)N[C@@H](CCC(=O)O)C(=O)NCC(=O)N[C@@H](C)C(=O)N[C@H](C(N)=O)[C@@H](C)O [p24(33-48)] |  |  |  |  |  |  |  |  | 3920 | 6250 | 7.5 |  | 
3 | CSCC[C@H](NC(=O)[C@@H]1CCCN1C(=O)[C@H](CCCNC(=N)N)NC(=O)[C@H](CC(C)C)NC(=O)[C@@H]1CCCN1C(=O)[C@@H](NC(=O)[C@H](CCC(N)=O)NC(=O)[C@@H]1CCCN1C(=O)[C@H](CCCNC(=N)N)NC(=O)[C@@H](NC(=O)[C@@H]1CCCN1C(=O)[C@H](Cc1ccccc1)NC(=O)CN)C(C)C)C(C)C)C(=O)N[C@H](C(=O)N[C@@H](Cc1ccc(O)cc1)C(=O)N[C@@H](CCCCN)C(=O)NCC(=O)N[C@@H](C)C(=O)N[C@@H](Cc1ccccc1)C(=O)N[C@@H](CC(=O)O)C(=O)N[C@@H](CC(C)C)C(N)=O)[C@@H](C)O [nef(67-87)] | 4800 | 98 | 1320 | 4030 | 46 | 681 | 3410 | 1720 | 15100 | 13600 | 5940 | 341 | 150
